Anti-infective test results gathered from many reports (values: NIAID ChemDB through PubChem).

Shared fields: enzyme or target tests; agent: HIV-1; protein: Tat:TAR/LTR

ICn: concentration for n% inhibition.

compound | read by | measure | value
NCCCOc1ccc(-c2cc3ccccc3s2)cc1CNCCCCN=C(N)N | FRET | Ki | 0.168 µM
NCCCC[C@H]1NC(=O)[C@H](CCCN=C(N)N)NC(=O)[C@H](Cc2ccccc2)NC(=O)[C@H](CCCN=C(N)N)NC(=O)[C@H](CCCN=C(N)N)NC1=O | FRET | Ki | 17.07 µM
NCCCCN(CCCN)CCCNc1c2ccccc2nc2ccccc12 | gel | IC50 | 0.073 µM
NCCCOc1ccc(-c2ccc3occc(=O)c3c2)cc1CNCC1CCNCC1 | FRET | Ki | 3.04 µM
COc1ccc2nc3cc(Cl)ccc3c(NCCCN(CCCCCCN)CCCCCCN)c2c1 | gel | IC50 | 0.082 µM
COc1ccc(OCCN=C(N)N)c(CNCCCCN=C(N)N)c1 | FRET | Ki | 1.3 µM
CC(=O)NCCN(CCC(=O)NCCN(CCC(=O)NCCN(CCC(=O)NCCN(CCC(=O)NCCN(CCC(=O)NCCC(N)=O)C(=O)[C@@H](N)Cc1ccccc1)C(=O)[C@@H](N)CCCN=C(N)N)C(=O)[C@@H](N)Cc1ccccc1)C(=O)[C@@H](N)Cc1ccccc1)C(=O)[C@@H](N)Cc1ccccc1 | FRET / fluorescence | IC50 | >2 µM
NCCCOc1ccc(-c2cc3ccccc3s2)cc1CNCC1CCNCC1 | FRET | Ki | 0.476 µM
NCCCC[C@@H]1NC(=O)[C@@H](CCCN=C(N)N)NC(=O)[C@H](Cc2ccccc2)NC(=O)[C@H](CCCN=C(N)N)NC(=O)[C@H](CCCN=C(N)N)NC1=O | FRET | Ki | 15.27 µM
NCCCCN(CCCN)CCCNC(=O)c1c2ccccc2nc2ccccc12 | gel | IC50 | 0.25 µM
NCCCC[C@@H]1NC(=O)[C@H](CCCN=C(N)N)NC(=O)[C@H](Cc2ccccc2)NC(=O)[C@H](CCCN=C(N)N)NC(=O)[C@@H](CCCN=C(N)N)NC1=O | FRET | Ki | 8.28 µM
CC(=O)NCCN(CCC(=O)NCCN(CCC(=O)NCCN(CCC(=O)NCCN(CCC(=O)NCCN(CCC(=O)NCCC(N)=O)C(=O)[C@@H](N)Cc1ccccc1)C(=O)[C@@H](N)CCCN=C(N)N)C(=O)[C@@H](N)Cc1ccccc1)C(=O)[C@@H](N)CCCN=C(N)N)C(=O)[C@@H](N)Cc1ccccc1 | FRET / fluorescence | IC50 | 0.413 µM
COc1ccc2nc3cc(Cl)ccc3c(NCCCN(CCCN)CCCCN)c2c1 | gel | IC50 | 0.022 µM
CC(=O)NCCN(CCC(=O)NCCN(CCC(=O)NCCN(CCC(=O)NCCN(CCC(=O)NCCN(CCC(=O)NCCC(N)=O)C(=O)[C@@H](N)Cc1ccccc1)C(=O)[C@@H](N)CCCN=C(N)N)C(=O)[C@@H](N)Cc1ccccc1)C(=O)[C@@H](N)CCCCN)C(=O)[C@@H](N)Cc1ccccc1 | FRET / fluorescence | IC50 | 1.1 µM
NCCCCN(CCCCN)CCNc1c2ccccc2nc2ccccc12 | gel | IC50 | >1 µM
CNC(=O)c1cc2cc(-c3ccc(OCCCN)c(CNCC4CCNCC4)c3)ccc2o1 | FRET | Ki | 3.36 µM

For reference, 2 entries again:

COc1ccc2nc3cc(Cl)ccc3c(NCCCN(CCCN)CCCCN)c2c1 ; read by: gel ; measure: IC50 ; value: 0.022 µM
NCCCCN(CCCN)CCCNc1c2ccccc2nc2ccccc12 ; read by: gel ; measure: IC50 ; value: 0.073 µM

Conditions beyond the fields shown may differ between rows.